The values that follow are results of earlier work, collected in publication PMC4000213 (PLoS ONE, 2014).

The series deals with BoNT/A / LcA. The note with it: cited from earlier work.

Take zinc chloride [ZnCl2]: the “effect of ZnCl2 on solubilized LcA activity” value is “inhibited by increasing concentrations”.
